Human monoclonal antibodies against the spike receptor-binding domain (heavy:light variable regions). IC50 against pseudoviruses bearing the spike of naturally observed variants; lower = stronger; >10 µg/ml means not reached at the top dose. No active / inactive call. The stated detection limit is 0.0005 µg/ml; values near or below 0.001 µg/ml lie at the floor of the assay.
B1: BD57-0262 (protein)
chain 1: QVHLVQSGAEVKKTGSSVKVSCKASGGTFSSYVISWVRQAPGQGLEWMGGIIPVFGVPNYAQKFKGRVTITAAESTGTAYMELSSLRSEDTAVYFCATGGVSGTVVYNMAVWGEGTAVTVSS
chain 2: QSALTQPPSASGSPGQSVTISCTGTSSDVGGFNYVSWYQQHPGKAPKLIIYEVSQRPSGVPDRFSGSKSGNAASLTVSGLQAEDEADYYCSSYGGNNNLIFGGGTKLTVL
B2: BD57-0241 (protein)
chain 1: QVQLVESGGGVVQPGRSLRLSCAASGFSFSNYAMHWVRQAPGKGPEWVAVILSDGSGKFYADSVKGRFTISRDNSKHTLFLQMNSLRPEDTAFYYCARDWGTTVTYFDYWGQGTLVTVSS
chain 2: DIQMTQSPSSLSASVGDRVTISCRASQSIRSYLSWYQQKPGKAPKLLIYDASSLPSGVPSRFSGSGSGTDFTLTISSLQPEDFATYYCQQSYSTPPWTFSQGTKVEIK
B3: BD57-0240 (protein)
chain 1: QVQLVESGGGVVQPGRSLRLSCAASGFTFTNYVMHWVRQAPGKGLEWVAVILYDGSNKYYADSVKGRFTISRDSSKNTLYLQMNSLRVEDTAVYYCAKAGGPYCSGTNCYVSYFDYWGQGTLVTVSP
chain 2: DIQMTQSPSSLSASVGDRVTITCQASQDISKYLNWYQQKPGKAPKLLIYAASNLETGVPSRFSGSGSGTDFTFTISTLQPEDIATYSCQQYHNLPLTFGGGTKVEIK
B4: BD57-0254 (protein)
chain 1: DVQLVESGGGLVQPGGSLRLSCAASGFTVTSNYMSWVRQAPGKGLEWVSVVYPGGSTFYADSVKGRFTISRDNSKNTLYLQMNGLRGDDTAVYYCSRDFVRGIRGINHWGQGTLVTVSS
chain 2: DIQMTQSPSSLSASIGDRVTITCQASQDISNYLNWYQQKPGKAPKLLIYDASNLETGVPSRFSGSGSGTDFTFTIISLQPEDIATYYCHQYDNLPYTFGGGTKVEIK
B5: BD57-0244 (protein)
chain 1: QVTLKESGPVLVKPSETLTLTCTVSGLSVSNDRMGVSWIRQPPGKALEWLAHIFSNDEKSYSTSLKSRLTISTDTSKRQVVLTMTSMDPVDTATYYCARMPPGVVHNWFDPWGQGILVTVSS
chain 2: SYVLTQPPSVSVAPGKTARITCGGNNIGSKSVHWYQQKTGQAPVLVIYYDSDRPSGIPERFSGSNSGNTATLIISRVEAGDEADYYCQVWDSSSDQGVFGGGTKLTVL
B6: BD57-0272 (protein)
chain 1: QVQVVESGGGVVQPGRSLRLSCVVSGFTFSTYGMHWVRQAPGKGPEWVAVIWYDGTNEHYTDSVKGRFTISRDNSKNTLYLEMNSLRAEDTAVYYCAREAFYYGSNGENYFQYYMDVWGKGTTVTVSS
chain 2: QSALTQPRSVSGSPGQSVTISCTGTSSDVGGYNYVSWYQHHPGKAPKVMIYDVNKRPSGVPDRFSGSKSDNTASLTISGLQAEDEADYYCCSYAGTYTYVFGTGTTVSVL
B7: BD57-0264 (protein)
chain 1: QDHLVQSGAEVRKAGTSVKVSCRASGGSFSSYSFNWVRQAPGQGLEWMGRIIPILDIANYAQKFQGRVTITADTSTSTVYMGLSSLTFEDTAVYFCARGSSDYGDNLLSGLDWFDPWGQGTLVTVSS
chain 2: QSVLTQPPSVSGAPGQRVTISCSGSSSNIGAGYDVHWYQQLPGTAPKLLIFGNTNRPSGVPDRFSGSKSGTSASLAIIGLQAEDEAGYYCQSYDSSLSHVIFGGGTKLTVL
B8: BD57-0235 (protein)
chain 1: QVQLVQSGAEVKKPGASVKVSCKASGYTFTNYAFSWVRQAPGQGLEWLGRISAHNDNINYAQKLQGRVTMTTDTSTKTAYMELRSLRSDDTAVYYCARNAVGATLVGDDYYYYYGMDVWGQGTTVTVSS
chain 2: SYEVTQPPSVSVSPGQTARITCSGDALPKQYAYWYQQRPGQAPVLVIYKDTERPSGIPERFSGSSSGTTVTLTISGVQAEDEADYYCQSADSSGTFVVFGGGTKLTVL
B9: BD57-0234 (protein)
chain 1: QVQLVQSGAEVKKPGSSVRVSCKASGGTFSNYPIAWVRQAPGQGLEWMGWIIPILGATTYAQNFQGRVTITADKSTGAAYMELASLTLEDTAVYYCARQVGYSGPGSNYYVDVWGRGTTVTVSS
chain 2: QSVLTQPPSVSGAPGQRVTISCTGSNSNIGAGYDVHWYSQFPGTAPKLLIYANSDRPSGVPDRFSGSKSGTSASLAISGLQAEDEADYYCQSYDSTLSGSVFGGGTKLTVL
B10: BD57-0236 (protein)
chain 1: EVQLVESGGGLVQPGRSLRLSCAASGFNFDDYAMHWVRQVPGKGLEWVSGINWNSDSVAYAGAVKGRFTISRDNAKNSLYLQMNSLRPEDTAFYYCAKDISMGAGDYFDSWGQGTLVTVSS
chain 2: SYVLTQPPSVSVAPGKTASITCGGNNIGSKGVHWYQQKPGQAPVLVIYYDSDRPSGIPERFSGSNSGNTATLTISRVEAGDEADYYCQVWDGSGAHPGYVFGSGTRVTVL
B11: BD57-0248 (protein)
chain 1: EVQLVESGGGLVQPGGSLRLSCAASGFPFSTYDMHWVRQGTGKSLEWVSAIGTAGDTYYSDSVKGRFTISRENAKSSLYLRMNSLRVGDTAVYYCARVSHHYDGRGVPNYYYMDVWGIGTTVTVSS
chain 2: DIQMTQSPSSLSASVGDRVTITCRASQNINTYLNWYQQKPGKGPKLLIYGASNLQSGVPSRFSGSGSGTDFTLTISSLQPEDFASYHCQQSYSNPQATFGQGTKLEIK
B12: BD57-0270 (protein)
chain 1: QLQLQESGPGVVKPSQTLSLTCTVSGGSISSGGFYWNWIRQHPVKGLEWIGSIFYSGSTYYNPSLKSRLTMAVDTSKNQLSLKLRSVTAADTAVYYCARDFGGNANYFAFWGQGTRVTVSS
chain 2: DIQMTQSPSSLSASVGDRVTITCQASQDITNYLSWYQQKPGKAPKLLIYDASNLETGVPSRFSGSGSGTDFTLTISSLQPEDFATYYCQQYYNNLPLTFGGGTKVEIK

Target: SARS-CoV-2 Omicron BA.1 spike pseudovirus
Assay: pseudovirus neutralization IC50; higher = weaker neutralization
Protocol: (§1)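 Single-round VSV luciferase pseudovirus mixed with antibody dilutions for 1 h and put on Huh-7 cells for about a day; IC50 from the dose curve.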

Binder | pseudovirus neutralization IC50 [µg/mL]
B1 | > 10
B2 | 3.41
B3 | > 10
B4 | 0.00764
B5 | 0.333
B6 | 0.275
B7 | 0.0716
B8 | 1.88
B9 | 0.0462
B10 | > 10
B11 | > 10
B12 | 6.18

Target: SARS-CoV-2 Omicron BA.2 spike pseudovirus
Assay: as above
Protocol: as §1

Binder | pseudovirus neutralization IC50 [µg/mL]
B1 | > 10
B2 | 2.48
B3 | > 10
B4 | 0.00641
B5 | 0.27
B6 | 0.969
B7 | 0.0963
B8 | 2.11
B9 | 0.0318
B10 | > 10
B11 | > 10
B12 | 4.08

Target: SARS-CoV-2 Omicron BA.2.75 spike pseudovirus
Assay: as above
Protocol: as §1

Binder | pseudovirus neutralization IC50 [µg/mL]
B1 | 0.00381
B2 | 2.38
B3 | > 10
B4 | 0.346
B5 | 0.154
B6 | 0.631
B7 | 0.446
B8 | 1.68
B9 | 0.0183
B10 | > 10
B11 | > 10
B12 | 3.24

Target: SARS-CoV-2 Omicron BA.5 spike pseudovirus
Assay: as above
Protocol: as §1

Binder | pseudovirus neutralization IC50 [µg/mL]
B1 | 0.0413
B2 | 2.3
B3 | > 10
B4 | 0.00588
B5 | > 10
B6 | 0.637
B7 | 0.0629
B8 | 2.45
B9 | 1.55
B10 | > 10
B11 | > 10
B12 | 5.41

Target: SARS-CoV-2 Omicron BQ.1.1 spike pseudovirus
Assay: as above
Protocol: as §1

Binder | pseudovirus neutralization IC50 [µg/mL]
B1 | 0.163
B2 | 3.69
B3 | > 10
B4 | 2.11
B5 | > 10
B6 | > 10
B7 | 0.537
B8 | 8.28
B9 | 1.7
B10 | > 10
B11 | > 10
B12 | 7.12

Target: SARS-CoV-2 Omicron XBB spike pseudovirus
Assay: as above
Protocol: as §1

Binder | pseudovirus neutralization IC50 [µg/mL]
B1 | > 10
B2 | 2.79
B3 | > 10
B4 | 2.24
B5 | > 10
B6 | 4.17
B7 | 0.62
B8 | 2.07
B9 | 0.563
B10 | > 10
B11 | > 10
B12 | 5

Target: SARS-CoV-2 early D614G spike pseudovirus
Assay: as above
Protocol: as §1

Binder | pseudovirus neutralization IC50 [µg/mL]
B1 | 0.0016
B2 | 0.764
B3 | > 10
B4 | 0.00575
B5 | 0.145
B6 | 0.614
B7 | 0.00303
B8 | > 10
B9 | 0.179
B10 | > 10
B11 | > 10
B12 | 5.34

From the supplement of paper PMC9931576
